Compound potency records, mixed from different reports. Data source: NIAID ChemDB in PubChem.

All rows: tests in culture; agent: Hepatitis C virus; measure: EC90

Conditions beyond the fields shown may differ between rows. ECn: concentration that inhibits the pathogen or its effect by n%. An empty or dashed field is not shown.

| compound | strain | method | cells | conditions | result |
|---|---|---|---|---|---|
| CC1CCC(C(=O)N(c2cc(C#CC(C)(C)C)sc2C(=O)O)C2CCC(O)CC2)CC1 | 1b |  | Huh7 |  | 0.012 µM |
| CNc1ncnc2c1c(F)cn2[C@H]1O[C@H](CO)[C@@H](O)[C@@]1(C)F |  | replicon | CEM |  | >10 µM |
| N#Cc1c(C(=O)Nc2ccc(Cl)cc2)nn(-c2ccc(Cl)cc2)c1-n1cccc1 | Con1 (gt 1b) | luciferase / replicon | Huh 5-2 |  | 151.7 µM |
| C#Cc1cn([C@@H]2O[C@H](CO)[C@@H](O)[C@@]2(C)F)c2nc(N)nc(N)c12 |  | replicon | CEM |  | >10 µM |
| O=C(N[C@@H](C(=O)N1CCC[C@H]1c1ncc(-c2ccc(-c3ccc(-c4cnc([C@@H]5CCCN5C(=O)[C@H](NC(=O)C5CC5)c5ccccc5)s4)cc3)cc2)s1)c1ccccc1)C1CC1 | genotype 1b | luciferase / reporter gene | Huh7.5 |  | 0.0000074 µM |
| COC(=O)C1=C(C(=O)OC)C2N(CCOCCN3c4ccccc4[C@]45CC(=O)N(Cc6ccccc6)C4=NC(C(=O)OC)=C(C(=O)OC)C35)C3C=CC=CC3[C@@]23CCC(=O)N(Cc2ccccc2)C3=N1 |  | PCR | Huh7.5 |  | 25.9 µM |
| CC(C)(C)OC(=O)N1CCN([C@@H](c2ccccc2)C(N)c2ccccc2)CC1 |  | absorbance |  |  | 8.15 µM |
| COC(=O)C1=C(C(=O)OC)C2N(CCCCCNC(=O)CCCCCNC(=O)CCCC3SCC4NC(=O)NC43)c3ccccc3[C@@]23CC(=O)N(Cc2ccccc2)C3=N1 |  | PCR | Huh7.5 |  | 47.3 µM |
| N#Cc1c(C(=O)Nc2ccccc2)nn(-c2ccccc2)c1-n1cccc1 | Con1 (gt 1b) | luciferase / replicon | Huh 5-2 |  | >241 µM |
| COC(=O)/C=C/c1cn([C@@H]2O[C@H](CO)[C@@H](O)[C@@]2(C)F)c2ncnc(N)c12 |  | replicon | CEM |  | >10 µM |
| COc1nc(N)nc2c1ncn2[C@@H]1O[C@H](CO[P@](=O)(N[C@@H](C)C(=O)OCC(C)(C)C)Oc2cccc3ccccc23)[C@@H](O)[C@@]1(C)O | H77 | luciferase | Huh7 |  | 0.004 µM |
| CCC(C)OC(=O)N[C@H](C(=O)N1C[C@H]2C(C1C(=O)NC(CC1CC1)C(=O)C(N)=O)C2(C)C)C(C)(C)C |  | replicon |  |  | 0.4 µM |
| O=C(Nc1ccc(Cl)cc1)c1cc(-n2cccc2)n(-c2ccc(Cl)cc2)n1 | Con1 (gt 1b) | luciferase / replicon | Huh 5-2 |  | 170.9 µM |
| CCOC(=O)[C@H](C)NP(=O)(OC[C@H]1O[C@@H](n2cc(F)c3c(N)ncnc32)[C@](C)(F)[C@@H]1O)Oc1ccccc1 |  | replicon | CEM |  | >10 µM |
| NC(=O)c1ncn(CCC2(O)NC(=O)C(OCc3ccccc3)=C2OCc2ccccc2)c1C(N)=O | 1b | luciferase / replicon | Huh 5-2 |  | >100 µg/mL |
| CC(C)(C)C(=O)OCOP(=O)(CC[C@H]1O[C@@H](n2cnc3c(N)nc(N)nc32)[C@](C)(F)[C@@H]1O)OCOC(=O)C(C)(C)C |  | PCR | Huh7 |  | >10 µM |
| CCc1cc2c(cc1F)c(C#N)c(-c1ccc(S(=O)(=O)N[C@@H](C)C(F)(F)F)cn1)n2-c1ncccn1 | 1b | PCR |  |  | 0.0096 µM |
| COc1c(C(C)(C)C)cc(-c2ccc[nH]c2=O)c2ncc(-c3ccc(NS(C)(=O)=O)cc3)cc12 | GT-1b Con1 | replicon | Huh7 | 40% human serum | 0.029 µM |
| C=CCNC(=O)C(=O)C(CCCC)NC(=O)[C@@H]1C2[C@H](CN1C(=O)[C@@H](NC(=O)NC(C(=O)OC(C)c1ccccc1)C(C)(C)C)C(C)(C)C)C2(C)C |  | replicon |  |  | 4.7 µM |
| CC(C)(C)C(=O)OCOP(=O)(CC[C@H]1O[C@@H](n2ccc(N)nc2=O)[C@](C)(F)[C@@H]1O)OCOC(=O)C(C)(C)C |  | PCR | Huh7 |  | >10 µM |
| CCC(C)C(NC(=O)N[C@H](C(=O)N1C[C@H]2C([C@H]1C(=O)NC(CC1CC1)C(=O)C(N)=O)C2(C)C)C(C)(C)C)C(=O)O |  | replicon |  |  | 3.2 µM |
| CCC[C@H](NC(=O)[C@@H]1[C@H]2CCC[C@H]2CN1C(=O)[C@@H](NC(=O)[C@@H](NC(=O)c1cnccn1)C1CCCCC1)C(C)(C)C)C(=O)C(=O)NC1CC1 | 1b |  | Huh7 |  | 1.8 µM |
| CC(C)(C)[C@H](NC(=O)N[C@H](C(=O)N1C[C@H]2C([C@H]1C(=O)NC(CC1CC1)C(=O)C(N)=O)C2(C)C)C(C)(C)C)C(=O)OC1CCCC1 |  | replicon |  |  | 0.8 µM |
| C[C@@]1(F)[C@H](O)[C@@H](CO)O[C@H]1n1ccc(=O)[nH]c1=O | S282T mutant | replicon / PCR |  |  | >100 µM |
| CCC(C)C(NC(=O)N[C@H](C(=O)N1C[C@H]2C([C@H]1C(=O)NC(CC1CC1)C(=O)C(N)=O)C2(C)C)C(C)(C)C)C(=O)OCc1ccccc1 |  | replicon |  |  | 0.4 µM |
| NC(=S)N/N=C/c1ccc(Br)cc1F |  | PCR | Huh7 ET |  | >20 µM |
| C[C@@]1(F)[C@H](O)[C@@H](CO)O[C@H]1n1cc(I)c2c(N)nc(N)nc21 |  | replicon | CEM |  | >10 µM |
| CC(C)CC(NC(=O)NC(C(=O)N1C[C@H]2C([C@H]1C(=O)NC(CC1CC1)C(=O)C(=O)NCC(=O)N[C@H](C(=O)N(C)C)c1ccccc1)C2(C)C)C(C)(C)C)C(=O)O |  | replicon |  |  | 5 µM |

2 of the rows above, restated:

compound,strain,method,cells,conditions,result
CCC(C)OC(=O)N[C@H](C(=O)N1C[C@H]2C(C1C(=O)NC(CC1CC1)C(=O)C(N)=O)C2(C)C)C(C)(C)C,,replicon,,,0.4 µM
COC(=O)C1=C(C(=O)OC)C2N(CCOCCN3c4ccccc4[C@]45CC(=O)N(Cc6ccccc6)C4=NC(C(=O)OC)=C(C(=O)OC)C35)C3C=CC=CC3[C@@]23CCC(=O)N(Cc2ccccc2)C3=N1,,PCR,Huh7.5,,25.9 µM